Laboratory results as given in US7947717B2 (priority 2008, dated 2011).

Protein sequences, listed by entry. Tags and fused reporters are not part of them. Residues count along the entry.
UniProt P15917, 34-809 limits assumed: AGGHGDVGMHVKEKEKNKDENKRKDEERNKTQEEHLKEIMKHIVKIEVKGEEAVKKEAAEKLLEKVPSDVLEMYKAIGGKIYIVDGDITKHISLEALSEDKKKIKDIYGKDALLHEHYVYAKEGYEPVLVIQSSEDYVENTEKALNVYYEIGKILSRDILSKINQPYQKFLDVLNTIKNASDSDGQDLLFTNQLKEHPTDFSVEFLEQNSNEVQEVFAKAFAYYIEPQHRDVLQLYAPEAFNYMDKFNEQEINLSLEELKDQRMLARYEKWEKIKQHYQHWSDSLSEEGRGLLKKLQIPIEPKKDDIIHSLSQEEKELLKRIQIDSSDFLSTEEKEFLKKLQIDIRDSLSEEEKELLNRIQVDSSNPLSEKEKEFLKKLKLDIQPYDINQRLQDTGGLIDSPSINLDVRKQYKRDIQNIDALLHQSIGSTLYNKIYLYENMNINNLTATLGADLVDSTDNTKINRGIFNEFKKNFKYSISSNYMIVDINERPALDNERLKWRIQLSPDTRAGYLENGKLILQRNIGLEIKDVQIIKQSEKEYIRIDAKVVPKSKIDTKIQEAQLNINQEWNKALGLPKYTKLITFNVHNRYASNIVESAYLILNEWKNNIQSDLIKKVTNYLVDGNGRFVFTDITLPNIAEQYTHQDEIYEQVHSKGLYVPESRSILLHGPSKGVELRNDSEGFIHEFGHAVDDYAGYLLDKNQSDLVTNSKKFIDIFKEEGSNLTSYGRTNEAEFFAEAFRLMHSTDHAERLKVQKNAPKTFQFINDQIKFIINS

Target: lethal factor (LF) (Bacillus anthracis, UniProt P15917)
Test: biochemical

Compound: O=C(O)CN1C(=O)C(=Cc2cc(-c3ccc(Cl)cc3)on2)SC1=S [Compound 24, 2-(5-((5-(4-chlorophenyl)isoxazol-3-yl)methylene)-4-oxo-2-thioxothiazolidin-3-yl)acetic acid]
- IC50: 5.2 µM
